{"source": "PubChem BioAssay AID624099 – ICCB-Longwood, 2012", "test": "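Human genes that papillomavirus E2 requires to repress the HPV18 LCR promoter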 (primary screen)", "cells": "human C33A cervical carcinoma cells (HPV-negative) stably expressing BPV1 E2 and an HPV18 LCR luciferase reporter", "reagents": "siRNA pool against human genes, 40 nM", "time to read-out": "72 h", "read-out": "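HPV18 LCR reporter light per well, converted to plate-wise z-scores that exclude control wells, and averaged over triplicate plates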", "scale": "mean z-score and z-score: higher = stronger reporter signal, weaker E2 silencing", "active means": "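Hit if mean z-score reaches 2 and two or more of three replicate z-scores also reach 2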", "note": "In all, the deposit lists about 21,000 reagents; shown is a part drawn at random. 497 of them (2.4%) were called active. 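Higher z means weaker E2 silencing; only reporter increases were scored, and knock-downs that hurt cell survival may mask genuine repressor factors.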"}
{"gene knocked down": "ETV3L (GeneID 440695)", "mean z-score": -0.84, "z-score, replicate A": -0.56, "z-score, replicate B": -0.85, "z-score, replicate C": -1.11, "activity call": "inactive"}
{"gene knocked down": "LOC387846 (retired record) (GeneID 387846)", "mean z-score": -0.32, "z-score, replicate A": -0.05, "z-score, replicate B": -0.48, "z-score, replicate C": -0.44, "activity call": "inactive"}
{"gene knocked down": "CALML3 (GeneID 810)", "mean z-score": -0.67, "z-score, replicate A": -0.61, "z-score, replicate B": -0.53, "z-score, replicate C": -0.88, "activity call": "inactive"}
{"gene knocked down": "CREB3L4 (GeneID 148327)", "mean z-score": 3.9, "z-score, replicate A": 4.24, "z-score, replicate B": 4.02, "z-score, replicate C": 3.44, "activity call": "active"}
{"gene knocked down": "TP53RK (GeneID 112858)", "mean z-score": 0.13, "z-score, replicate A": 0.18, "z-score, replicate B": 0, "z-score, replicate C": 0.22, "activity call": "inactive"}
{"gene knocked down": "BAK1 (GeneID 578)", "mean z-score": 2.03, "z-score, replicate A": 1.71, "z-score, replicate B": 2.32, "z-score, replicate C": 2.06, "activity call": "active"}
{"gene knocked down": "GBA3 (GeneID 57733)", "mean z-score": 0.06, "z-score, replicate A": -0.12, "z-score, replicate B": 0.49, "z-score, replicate C": -0.2, "activity call": "inactive"}
{"gene knocked down": "CTSS (GeneID 1520)", "mean z-score": 0.25, "z-score, replicate A": -0.12, "z-score, replicate B": 0.25, "z-score, replicate C": 0.61, "activity call": "inactive"}
{"gene knocked down": "GBP1 (GeneID 2633)", "mean z-score": -1.25, "z-score, replicate A": -1.11, "z-score, replicate B": -1.39, "z-score, replicate C": -1.24, "activity call": "inactive"}

Targets listed so far whose target name begins with C or c (3):
{"gene knocked down": "CALML3 (GeneID 810)", "mean z-score": -0.67, "z-score, replicate A": -0.61, "z-score, replicate B": -0.53, "z-score, replicate C": -0.88, "activity call": "inactive"}
{"gene knocked down": "CREB3L4 (GeneID 148327)", "mean z-score": 3.9, "z-score, replicate A": 4.24, "z-score, replicate B": 4.02, "z-score, replicate C": 3.44, "activity call": "active"}
{"gene knocked down": "CTSS (GeneID 1520)", "mean z-score": 0.25, "z-score, replicate A": -0.12, "z-score, replicate B": 0.25, "z-score, replicate C": 0.61, "activity call": "inactive"}

Further records follow.
{"gene knocked down": "LOC388731 (retired record) (GeneID 388731)", "mean z-score": -0.24, "z-score, replicate A": -0.14, "z-score, replicate B": -0.21, "z-score, replicate C": -0.37, "activity call": "inactive"}
{"gene knocked down": "SLITRK6 (GeneID 84189)", "mean z-score": -0.33, "z-score, replicate A": -0.51, "z-score, replicate B": -0.37, "z-score, replicate C": -0.1, "activity call": "inactive"}
{"gene knocked down": "SMR3A (GeneID 26952)", "mean z-score": 0.23, "z-score, replicate A": 0.14, "z-score, replicate B": 0.54, "z-score, replicate C": 0, "activity call": "inactive"}
{"gene knocked down": "HMGCS1 (GeneID 3157)", "mean z-score": -1.04, "z-score, replicate A": -1.19, "z-score, replicate B": -1.07, "z-score, replicate C": -0.87, "activity call": "inactive"}
{"gene knocked down": "FAABTP (GeneID 55266)", "mean z-score": -1.97, "z-score, replicate A": -1.99, "z-score, replicate B": -1.99, "z-score, replicate C": -1.92, "activity call": "inactive"}
